Source: patent US12508251B2, “CD4 mimic compound with anti-HIV activity” (NATIONAL UNIVERSITY CORPORATION KUMAMOTO UNIVERSITY, priority 2019, dated 2025)

Test system: HIV isolate (KP5mvcR)
Assay type: cell-based, HIV-1
Conditions: CC50/IC50, TZM-bl cells, KP-5mvcR
Description: In this Example, TZM-bl cells (available from NIH AIDS Reagent Program (https://www.aidsreagent.org/Index.cfm)) were used for individual evaluations. TZM-bl cells have CD4/CCR5/CXCR4 on the surface and express luciferase when infected with HIV. In this manner, TZM-bl cells serve as indicator cells. In the cells, β-galactosidase gene linked to HIV-1 LTR sequence is integrated. When the cells are infected with HIV-1, the tat gene of HIV-1 expresses a transcriptional activator Tat, which acts on the promoter region of LTR to express β-galactosidase. When a substrate is added, enzymatic cleavage occurs to produce galactose and luciferin. Luciferin is oxidized by luciferase to generate chemiluminescence, which can be detected by a luminometer to determine the number of cells infected with HIV-1.
2) IC50 (Calculation of Anti-HIV Activity)
After each compound was serially diluted, TZM-bl cells (1×10^4) and 100TCID50 of HIV isolate (KP5mvcR) were added, and then, cultured for 48 hours. Thereafter, the cells were collected and a Luc reporter reagent was added. The amount of luminescence was measured to calculate the inhibition rate of infection (IC50). […]

| SMILES | SI (selectivity index) |
| --- | --- |
| COCCOCCOCCOCCOCCOCCOCCOCCOCCOCCOCCOCCOCCOCCOCCOCCOCCOCCOCCOCCOCCOCCOCCOCCNC(=O)CCC(=O)N[C@@H](CCCNC(=N)N)C(=O)NCCN1CCC(NC(=O)C(=O)Nc2ccc(Cl)cc2)CC12CCCCC2 (some centres unmarked) [TKB-003] | >400 |
| CC1(C)CC(NC(=O)C(=O)Nc2ccc(Cl)cc2)CC(C)(C)N1 [NBD-556, reference compound] | 656 |
